Experimental findings from PMC7298706 (mBio, 2020) are described below.

Test [1] addresses T1, LukS240-259 fragment clone displayed on phage (Staphylococcus aureus (phage PVL …, UniProt O80066)).
T1 chain: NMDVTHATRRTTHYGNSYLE
Put plainly: ELISA. Conditions: both partners purified. (ELISA stands for enzyme-linked immunosorbent assay.)

Test [2] addresses LukS168-259 fragment clone displayed on phage (Staphylococcus aureus (phage PVL …, UniProt O80066)). The test is described as follows: ELISA. Conditions: both partners purified.

B1: anti-HlgC2 MAb (antibody, V domains shown)
VH: QVQLKESGPGLVAPSQSLSITCTVSGFSLTNFAVHWVRQPRGKGLEWLGSIWADGRTIYSALMSRLSISKDNSKSQVFLNMNSLQTDDTAMYYCATPFYFGYDGGYAMDHWGQGTSVTVSS
VL: DVLMTQTPLSLPVSLGDQASISCRSSQSIVHGSGNTYLEWYLQKPGQSPKLLIYKVSNRLSGVPDRISGSGSGTDFTLKINRVEAEDLGVYYCFQGSHVPYTFGGGTKLEMK
notes: also called anti-HIgC2 MAb; source: murine B-cell hybridoma (BALB/c mice immunized with recombinant HlgC)
Consider B1, for which the binding result in test [1] and in test [2] was “binds” throughout.

B2: anti-HlgC1 MAb (antibody, V domains shown)
VH: QVQLLQSGAELVKPGASVQLSCKASGFTFTKHDINWVRQRPEQGLEWIGWIFPGDGNTKYNEKFKGKATLTTDKSSSTAYMQLNGLTSEDSAVYFCAKEIFYWGQGTSVTVSS
VL: DIVMTQSPSSLTVTAGEKVTMSCKSSQSLLNSENQRNYLTWYQQKPGQPPKLLISWASTRESGVPDRFTGSGSGTDFTLTISSVQAEDLAVYYCQNDFSYPLTFGAGTKLELR
notes: also called anti-HIgC1 MAb; source: murine B-cell hybridoma (BALB/c mice immunized with recombinant HlgC)
Take B2: the binding result in test [1] and in test [2] was “binds” throughout.

B3: anti-HlgC3 MAb (antibody, V domains shown)
VH: QVQLLQSGAELVKPGASVQLSCKASGFTFTKYDINWVRQRPDQGLEWIGWIFPGDGNTKYNDKFKGKVILTTDKSSSTAYMQLSRLTSEDSAVYFCAREIFYWGQGTSVTVSA
VL: DIVMTQSPSSLTVTAGEKVTMSCKSSQSLFNSENQRNYLTWYQQKPRQPPKLLISWASTRESEVPDRFTGSGSGTDFTLTISSVQAEDLAVYYCQNDYSYPLTFGAGTKLELR
notes: also called anti-HIgC3 MAb; source: murine B-cell hybridoma (BALB/c mice immunized with recombinant HlgC)
B3: the binding result in test [1] and in test [2] was “binds” each time.

B4: anti-HlgC4 MAb (antibody, V domains shown)
VH: QVQLLQSGAELVKPGASVQLSCKASGFTFTKYDINWVRQRPDQGLEWIGWIFPGDGNTKYNDKFKGKVILTTDKSSSTAYMQLTRLTSEDSAVYFCAREIFYWGQGTSVTVSS
VL: DIVMTQSPSSLTVTAGEKVTMSCKSSQSLLNSENQRNYLTWYQQKPGQPPKLLISWASTRESGVPDRFTGSGSGTDFTLTISSVQAEDLAVYYCQNDYSYPLTFGAGTKLELR
notes: also called anti-HIgC4 MAb; source: murine B-cell hybridoma (BALB/c mice immunized with recombinant HlgC)
As for B4, the binding result in test [1] and in test [2] was “binds” each time.
